Human monoclonal antibodies against the spike receptor-binding domain (heavy:light variable regions). IC50 against pseudoviruses bearing the spike of naturally observed variants; lower = stronger; >10 µg/ml means not reached at the top dose. No active / inactive call. The stated detection limit is 0.0005 µg/ml; values near or below 0.001 µg/ml lie at the floor of the assay.

Common to all, as to experiment: pseudovirus neutralization IC50; higher = weaker neutralization
In experiment [1] the target is SARS-CoV-2 Omicron BA.1 spike pseudovirus. On the procedure: (§1)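 Single-round VSV luciferase pseudovirus mixed with antibody dilutions for 1 h and put on Huh-7 cells for about a day; IC50 from the dose curve.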
Experiment [2] deals with SARS-CoV-2 Omicron BA.2 spike pseudovirus. On the procedure:
as §1

The target in experiment [3] is SARS-CoV-2 Omicron BA.2.75 spike pseudovirus. Here is the method: as §1
In experiment [4] the target is SARS-CoV-2 Omicron BA.5 spike pseudovirus. On the procedure: as §1
The target in experiment [5] is SARS-CoV-2 Omicron BQ.1.1 spike pseudovirus. On the procedure:
as §1

In experiment [6] the target is SARS-CoV-2 Omicron XBB spike pseudovirus. On the procedure: as §1
The target of experiment [7] is SARS-CoV-2 early D614G spike pseudovirus. On the procedure:
as §1

B1: BD57-037 (protein)
chain 1: QGQLVQSGSELQKPGASVRVSCKASGFTLTSYAINWVRQAPGQGLEWMGWINTNTGNPTYAQGFTGRFVFSLDTSVSTANLQISSLKSEDTAVYYCARVGRYSISWLDDAFDIWGQGTMVTVSS
chain 2: DIVMTQSPDSLAVSLGERATINCKSSHSVLYTSDNKNFLAWYQQKPGQPPKLLIYWASTRESGVPDRFSGSGSGTDFTLTISSLQAEDVAVYYCQQYYSTPLTFGGGTKVEIK
For B1, the “pseudovirus neutralization IC50” value in experiment [1] was 0.00438 µg/mL; in experiment [2] it was 0.00931 µg/mL; in experiment [3], 0.136 µg/mL; in experiment [4], 0.0392 µg/mL; in experiment [5], greater than 10 µg/mL; in experiment [6] it was greater than 10 µg/mL. Further, the “pseudovirus neutralization IC50” value in experiment [7] was determined as 0.00652 µg/mL.

B2: BD57-075 (protein)
chain 1: EVQLVESGGGLVQPGGSLRLSCAASGFTFRSYDMHWVRQPTGKGLEWVSVIGTAGDTYYRDSVKGRFTISRENAKNSLNLQMNSLRAGDTAVYFCARGDIKSGLHIDYWGQGTLVTVSS
chain 2: DIQMTQSPSSLSASVGDRVTITCRASQSISSFLNWYQHKPGKAPKLLIYATSSLQSGVPSRFSGSGSGTDFTLTISSLQPEDFATYYCQQTYETPPWTFGQGTKVEIK
On to B2, for which the “pseudovirus neutralization IC50” value in experiment [1], in experiment [2], in experiment [3], in experiment [4], in experiment [5] and in experiment [6] was greater than 10 µg/mL in each case. For the same molecule, the “pseudovirus neutralization IC50” value in experiment [7] is greater than 10 µg/mL.

B3: BD57-066 (protein)
chain 1: EVQLVESGGGLVKPGGSLRLSCATSGFTFSSYSMNWVRQAPGKGLEWVSSISSSSSYIYYADSVKGRFTISRDNAKKSLYLQLNSLRAEDTAVYYCARGYWTETLPVFDYWGQGTLVTVSS
chain 2: NFMLTQPHSVSESPGQTVTISCTGNSGSIANNYVQWYQQRPGSAPTTVIYEDNQRPSGVPDRFSGSIDSSSNSASLTISGLQTEDEADYYCQSFEGNTHVVFGGGTKLTVL
As to B3, the “pseudovirus neutralization IC50” value in experiment [1] came out at 1.02 µg/mL; in experiment [2], 1.27 µg/mL; in experiment [3], 1.05 µg/mL; in experiment [4], 0.996 µg/mL; in experiment [5], 1.18 µg/mL; in experiment [6], 0.959 µg/mL. Moreover, the “pseudovirus neutralization IC50” value in experiment [7] is 1.01 µg/mL.

B4: BD57-069 (protein)
chain 1: EGQLLESGGGLVQPGGSLRLSCAASGFTFSSYAMSWVRQAPGKGLEWVSVISGSSVNTDYADSVKGRFTISRDNSKNTLYLQMNSLRVEDTAIYYCARDRFTMLQGPYWGFDPWGQGTLVTVSS
chain 2: DVQMTQSPSSLSASVGDRVTLTCRASQSISHYLNWYQQKPGKAPKLLIYGASTLQSGVPSRFAGSGSGTDFTLTISSLQPEDFATYYCQQSYTTPALTFGGGTKVE
B4: the “pseudovirus neutralization IC50” value was 0.286 µg/mL in experiment [1]; 0.0399 µg/mL in experiment [2]; 0.232 µg/mL in experiment [3]; greater than 10 µg/mL in experiment [4]; greater than 10 µg/mL in experiment [5]; greater than 10 µg/mL in experiment [6]. The “pseudovirus neutralization IC50” value in experiment [7] was determined as 0.0444 µg/mL.

B5: BD57-043 (protein)
chain 1: QVQLVQSGAEVKKPGSSVKVSCKASGGTFSSYAINWVRQAPGQGLEWMGRIISMFDISNYAQNFQGRVTITADKSTSTAYMELNSLRSEDTAVYYCATTKFFYETGVGYYFEYWGQGTLVTVSS
chain 2: EIVLTQSPGTLSLSPGERATLSCRASQNLSSNYLAWYQQKPGQAPRLLIYGASSRATGIPDRFSGSGSGTDFILTISRLEPEDFAVYYCQQYHTSRTFGQGTKVEIK
Regarding B5, the “pseudovirus neutralization IC50” value in experiment [1] was 0.00243 µg/mL; in experiment [2] it was 0.0023 µg/mL; in experiment [3], 0.00216 µg/mL; in experiment [4] it was greater than 10 µg/mL; in experiment [5], greater than 10 µg/mL; in experiment [6], greater than 10 µg/mL. For the same molecule, the “pseudovirus neutralization IC50” value in experiment [7] amounted to 0.00148 µg/mL.

B6: BD57-058 (protein)
chain 1: QVQLVQSGAEVKKPGSSVRVSCKASGGTLSSYAISWVRQAPGQGLEWMGGIIPMYGTANYAQRFQGRITITADESTSTAYMQLSSLRSEDTAVYYCARDLAVSSGRLSFYYYMDVWGKGTTVTVSS
chain 2: QTVVTQEPSFSVSPGGTVTLTCALSSGSVSTSYFPSWYQQTPGQAPRTLIYSTNTRSSGVPDRFSGSILGNKAALTITGAQAHDESDYYCVLYMDSGIVLFGGGTKLTVL
Regarding B6, the “pseudovirus neutralization IC50” value in experiment [1] is 0.0569 µg/mL; in experiment [2], 0.0938 µg/mL; in experiment [3], 0.0252 µg/mL; in experiment [4], 0.0688 µg/mL; in experiment [5], greater than 10 µg/mL; in experiment [6], greater than 10 µg/mL. Besides, the “pseudovirus neutralization IC50” value in experiment [7] was found to be 0.0618 µg/mL.

B7: BD57-062 (protein)
chain 1: QMQLVQSGPEVKKPGTSVKVSCKASGFTFTTSAVQWVRQTRGQRLEWMGWIVVASGETDYAQRFQERVTITRDLSTSTAYMELSSLRSEDTSVFYCATNSCSRSTCYDGFDIWGQGTMVTVSS
chain 2: EIVLTQSPGTLSLSPGERATLSCRASQSVRSSYLAWYQQKPGQAPRLLIYGASSRATGIPDRFSGSGSETDFTLTISRLEPEDFAMYYCQQYDSPPPWTFGQGTKVEIK
With B7, the “pseudovirus neutralization IC50” value is 0.00306 µg/mL in experiment [1]; 0.00215 µg/mL in experiment [2]; 0.00139 µg/mL in experiment [3]; 1.27 µg/mL in experiment [4]; greater than 10 µg/mL in experiment [5]; greater than 10 µg/mL in experiment [6]. The “pseudovirus neutralization IC50” value in experiment [7] stood at 0.00582 µg/mL.

B8: BD57-067 (protein)
chain 1: QVQLMQSGAEVKKPGSSVKVSCKASGGTFSSSAINWLRQAPGQGLEWMGRIIPTLGVAEYAQRFQGRVAISADKSTSTAYMELKSLTSEDTAVYYCARGTAEYSVVVVAATHIEYFQHWGQGTLVTVSS
chain 2: EIVMTQSPATLSVSPGERVTLSCRASQTVTINLAWYQQKPGQAPTLLIYGASVRATGIPARFSGSGSGTEFTLTISSLQSEDFAVYYCQQYNNSPPYTFGQGTKLEIK
For B8, the “pseudovirus neutralization IC50” value in experiment [1] was 0.00363 µg/mL; in experiment [2] it was 0.0012 µg/mL; in experiment [3] it was 0.00355 µg/mL; in experiment [4], greater than 10 µg/mL; in experiment [5], greater than 10 µg/mL; in experiment [6] it was greater than 10 µg/mL. The “pseudovirus neutralization IC50” value in experiment [7] amounted to 0.00573 µg/mL.

B9: BD57-046 (protein)
chain 1: QVPVVESGGGVVKPGRSLRLSCAPSGFTFSSYSMHWVRQAPGKGLEWVAVISYDETVKYYADSVKGRFTISRDNSKNTLYLQMNSLRPEDTAVYYCARGGYEIYLFDGLDVWGQGTTVTVSS
chain 2: DIQMTQSPSSLSASVGDSVSLRCRASHSISRYLNWYQQRPGRAPKLLIYSASSLQSGVPSRFSGSGSGTDFTLTISSLQPEDFATYYCQHSYGNPPYTFGQGTKLEIK
As to B9, the “pseudovirus neutralization IC50” value is 0.0167 µg/mL in experiment [1]; 0.0148 µg/mL in experiment [2]; 0.0142 µg/mL in experiment [3]; greater than 10 µg/mL in experiment [4]; greater than 10 µg/mL in experiment [5]; greater than 10 µg/mL in experiment [6]. Moreover, the “pseudovirus neutralization IC50” value in experiment [7] was determined as 0.00762 µg/mL.

B10: BD57-038 (protein)
chain 1: QMQLVQSGPEVKKPGTSVKVSCKASGFTFSTSAVQWVRQARGQRLEWIGWLVVGSGNTDYAQKFQERVTMTRDESTGTAYMELSSLRSEDTAVYYCAAPNCNRTTCHDGFDIWGQGTVVSVSS
chain 2: EIVLTQSPGTLSLSPGERATLSCRASQSVSSNYLAWYQQNPGQAPRVLIYGASSRASGIPDRFSGSGSGTDFTLTISRLEPEDFAMYYCQQYGRSPWTFGQGTKVEIK
Take B10: the “pseudovirus neutralization IC50” value is 0.00268 µg/mL in experiment [1]; 0.00157 µg/mL in experiment [2]; 0.00299 µg/mL in experiment [3]; 2.67 µg/mL in experiment [4]; 7.41 µg/mL in experiment [5]; greater than 10 µg/mL in experiment [6]. Besides, the “pseudovirus neutralization IC50” value in experiment [7] is 0.00368 µg/mL.

B11: BD57-073 (protein)
chain 1: QVQLQQWGAGLLKPSETLSLTCAVHGGSFSGYYWSWIRQPPGKGLEWVGEINQSGSTNYNPSLKSRVTISVDTSKNQLSLKLKSVTAADTAVYYCAREVQYDILTGQPLPGSFDAFDIWGQGTMVTVSS
chain 2: QSVLTQPPSASGTPGQRVTISCSGSNSNMGTNTVNWYQHLPGTAPKLLIYSNNQRPSGVPDRFSGSKSGTSASLAISGLQSEEEADYYCAVWDDSLNGVVFGGGTKLTVL
B11: the “pseudovirus neutralization IC50” value in experiment [1] was 0.459 µg/mL; in experiment [2], 0.479 µg/mL; in experiment [3] it was 0.55 µg/mL; in experiment [4] it was greater than 10 µg/mL; in experiment [5] it was greater than 10 µg/mL; in experiment [6], greater than 10 µg/mL. For the same molecule, the “pseudovirus neutralization IC50” value in experiment [7] is 0.029 µg/mL.

B12: BD57-035 (protein)
chain 1: QVQLQESGPGLVRPSQTLSLTCSVSGGSISSGSYYWSWIRQPAEKGLEWIGRIYATGNTNYNPSLKSRVTISVDTSKNQFSLRLSYVTAADTAVYYCARERNPTIFGVADDLPGVCWGQGTLVTVSS
chain 2: DIQMTQSPSSLSASVGDRVTITCQASQDIRDFLNWYQQKPGKAPKLLIYDVSNLETGVPSRFSGSGSGTDFTFTISSLQPEDVATYYCQQFDTLITFGGGTKVEI
Regarding B12, the “pseudovirus neutralization IC50” value is 0.0847 µg/mL in experiment [1]; 0.0157 µg/mL in experiment [2]; 0.0723 µg/mL in experiment [3]; 0.263 µg/mL in experiment [4]; greater than 10 µg/mL in experiment [5]; greater than 10 µg/mL in experiment [6]. Further, the “pseudovirus neutralization IC50” value in experiment [7] was 0.0161 µg/mL.

The values are drawn from the supplement of paper PMC9931576.
